A mixed list of measured activities; the numbers were collected in NIAID ChemDB.

All rows: whole-cell or culture tests; species: Mycobacterium tuberculosis

ECn is the concentration giving n% inhibition of infection, replication or growth. MIC bound comes from a single tested concentration. Blank or dashed fields: not listed here. Rows are shuffled and stem from different studies. Inhibition is in % at the dose shown (toxicity tests: loss of growth or viability). A number after MIC or MFC names an inhibition level or a share of isolates.

compound	measure	strain or isolate	cell line	mutations	method	dose	result
CCN1CC(c2cccs2)=NC(C#N)=C1C#N	MIC	H37Rv			broth dilution / visual reading		12.5 µg/mL
O=c1cc(-c2cccc(-c3cccc4c(=O)cc(-c5ccccc5)oc34)c2)oc2ccccc12	MIC						>12.5 µg/mL
NC(=O)c1cnccn1	MIC	ATCC 35828					2048 µg/mL
O=C(NNc1ccccc1[N+](=O)[O-])N1CCN(c2nc(N3CCN(c4ccccc4)CC3)c3ccccc3n2)CC1	inhibition	H37Rv			BACTEC / fluorescence	6.25 µg/mL	0%
CCOC(=O)c1cc(-c2cc(C(F)(F)F)cc(C(F)(F)F)c2)on1	MIC	H37Rv			low oxygen		8.1 µM
CC(=O)OC1(C#N)CC2OC1C1N=NN(C(=O)OC(C)(C)C)C21	MIC bound	H37Rv			BACTEC		>12.5 µg/mL
O=C1C[C@@H](c2ccc(O)c(O)c2)Oc2c1c(O)cc(O)c2[C@H]1C(=O)c2c(O)cc(O)cc2O[C@@H]1c1ccc(O)cc1	EC50						>12.5 µg/mL
CC(=O)c1c(C)n([O-])c2cc(C)c(C)cc2[n+]1=O	MIC	H37Rv	VERO		BACTEC		6.25 µg/mL
NC(Cc1ccc(O)cc1)C(=O)N/N=C/c1ccccc1Cl	MIC bound	H37Rv			BACTEC		>12.5 µg/mL
O=Cc1ccc(NNC(=O)N2CCN(c3nc(N4CCN(c5ccccc5)CC4)c4ccccc4n3)CC2)cc1	inhibition	H37Rv			agar / visual reading	50 µg/mL	92%
Nc1cccc2c1C(=O)c1cccc(NC(=O)c3ccc4c5c(nsc35)-c3ccccc3C4=O)c1C2=O	MIC bound	H37Rv			BACTEC		>12.5 µg/mL
CO[C@H]1/C=C/O[C@@]2(C)Oc3c(C)c(O)c4c(O)c(c(/C=N/N5CCN(C)CC5)c(O)c4c3C2=O)NC(=O)/C(C)=C\C=C\[C@H](C)[C@H](O)[C@@H](C)[C@@H](O)[C@@H](C)[C@H](OC(C)=O)[C@@H]1C	MIC	M-4		MDR	resazurin		>2 µg/mL
COc1cc2oc(=O)cc(C[C@H](NC(=O)N[C@@H](Cc3c[nH]c4ccccc34)C(=O)OCc3ccccc3)C(=O)N[C@H](C(=O)NC[C@H]3C[C@@H](O)[C@H](n4ccc(=O)[nH]c4=O)O3)[C@H](C)N(C)C(=O)CN)c2cc1OC	MIC50	H37Rv			resazurin / fluorescence		0.1 µM
NNC(=O)c1ccncc1	MIC	M-3		MDR	resazurin		>2 µg/mL
COc1ccc2nc(C)c(C(=O)O)c(C(=O)O)c2c1	MIC bound	H37Rv			BACTEC		>12.5 µg/mL
CCOC(=O)c1cc(-c2cccc(N)c2)on1	MIC	H37Rv			resazurin		1.6 µM
Cc1ccccc1Sc1nnc(N2CCN(c3nc(N4CCN(c5ccccc5)CC4)c4ccccc4n3)CC2)o1	inhibition	H37Rv			agar / visual reading	6.25 µg/mL	99%
COc1cccc(CSc2ncn[nH]2)c1	MIC	My 331/88					1000 µM
O=C1CSC(COc2ccc(Cl)cc2Cl)O1	inhibition	H37Rv			BACTEC	12.5 µg/mL	-13%
CC(=O)c1c(C)n([O-])c2ccc(C)cc2[n+]1=O	EC50	H37Rv	VERO		BACTEC		<6.25 µg/mL
CC(=O)c1c(OC(=O)c2ccccc2)cc2oc3cc(OC(=O)c4ccccc4)c(CCC(C)C)c(O)c3c(=O)c2c1CCC(C)C	MIC	H37Ra			resazurin		12.5 µg/mL
C[C@H](O)[C@@H](NSc1ccccc1[N+](=O)[O-])C(=O)NCCc1nc(-c2nc(C(=O)NCCCBr)cs2)cs1	MIC bound	H37Rv			BACTEC		>12.8 µg/mL
CCOC(=O)c1cc(CN(C)c2ccc(OC(F)(F)F)cc2)on1	MIC	H37Rv					0.7 µM
CO[C@H]1/C=C/O[C@@]2(C)Oc3c(C)c(O)c4c(O)c(c(/C=N/N5CCN(C6CCCC6)CC5)c(O)c4c3C2=O)NC(=O)/C(C)=C\C=C\[C@H](C)[C@H](O)[C@@H](C)[C@@H](O)[C@@H](C)[C@H](OC(C)=O)[C@@H]1C	MIC	Isolate 900240 drug-susceptible					0.125 µg/mL
C[C@]1(COc2ccc(N3CCC(Oc4ccc(OC(F)(F)F)cc4)CC3)cc2)Cn2cc([N+](=O)[O-])nc2O1	MIC	H37Ra					0.006 µg/mL
CC(=O)c1c(CN2CCN(c3ccc([N+](=O)[O-])cc3)CC2)n([O-])c2ccccc2[n+]1=O	EC50	H37Rv			BACTEC		>6.25 µg/mL
COc1ccccc1Sc1nnc(N2CCN(c3nc(N4CCN(c5ccccc5)CC4)c4ccccc4n3)CC2)o1	MIC	H37Rv			agar / visual reading		100 µg/mL
CCCC(=O)Oc1cc2oc3cc(OC(=O)CCC)c(C(C)=O)c(CCC(C)C)c3c(=O)c2c(O)c1CCC(C)C	MIC	H37Ra			resazurin		25 µg/mL
O=c1cc(-c2ccc(O)c(-c3c(O)cc4oc(-c5ccc(O)cc5)cc(=O)c4c3O)c2)oc2cc(O)cc(O)c12	MIC						>12.5 µg/mL
CCN1C(C#N)=C(C#N)N=C(c2ccccc2)C1/C=C/c1ccc(-c2ccccc2)cc1	MIC	H37Rv			broth dilution / visual reading		12.5 µg/mL
CC1(C)CC[C@]2(C(=O)O)CC[C@]3(C)C(=CCC4[C@@]5(C)CC[C@H](O)C(C)(C)C5CC[C@]43C)C2C1	MIC	H37Rv (ethambutol-resistant)					50 µg/mL
CCOC(=O)c1cc(CN(C)c2ccc(C(F)(F)F)cc2)on1	MIC	H37Rv			resazurin		1.8 µM
NNC(=O)c1ccncc1	MIC	Clinical isolate BRF 26		INH resistant	resazurin		2 µg/mL
c1ccc(Sc2nnc(N3CCN(c4nc(N5CCN(c6ccccc6)CC5)c5ccccc5n4)CC3)o2)cc1	inhibition	H37Rv			agar / visual reading	50 µg/mL	91%
Cc1c(C(=O)c2ccccc2)[n+](=O)c2cc(Cl)c(Cl)cc2n1[O-]	MIC	H37Rv	VERO		BACTEC		6.25 µg/mL
Cc1cc(O)c(C=O)c2c1C(=O)Oc1c(CO)c(O)c3c(c1O2)C(O)OC3=O	MIC bound	H37Rv			BACTEC		>12.8 µg/mL
C[C@@H]([C@H](NC(=O)[C@H](Cc1ccc2ccccc2c1)NC(=O)N[C@@H](Cc1c[nH]c2ccccc12)C(=O)OCC(C)(C)C)C(=O)NC[C@H]1C[C@@H](O)[C@H](n2ccc(=O)[nH]c2=O)O1)N(C)C(=O)CN	MIC99	H37Rv			resazurin / fluorescence		0.044 µM
N#Cc1ccc(Sc2nnc(N3CCN(c4nc(N5CCN(c6ccccc6)CC5)c5ccccc5n4)CC3)o2)cc1	inhibition	H37Rv			agar / visual reading	12.5 µg/mL	93%
NNC(=O)C(N)Cc1ccccc1	inhibition	H37Rv			BACTEC	12.5 µg/mL	12%
FC(F)(F)c1cccc(CSc2ncn[nH]2)c1	MIC	My 331/88					250 µM
O=C(O)CCCCCCCCCCCBr	inhibition	H37Rv			BACTEC	12.5 µg/mL	8%
CC(=O)c1ccccc1Sc1nnc(N2CCN(c3nc(N4CCN(c5ccccc5)CC4)c4ccccc4n3)CC2)o1	inhibition	H37Rv			agar / visual reading	200 µg/mL	85%
CCCCCCNC(=O)[C@H](Cc1c[nH]c2ccccc12)NC(=O)N[C@@H](Cc1ccc2ccccc2c1)C(=O)N[C@H](C(=O)NC[C@H]1C[C@@H](O)[C@H](n2ccc(=O)[nH]c2=O)O1)[C@H](C)N(C)C(=O)CN	MIC50	H37Rv			resazurin / fluorescence		0.089 µM
NC(N)=Nc1ccc(-c2ccc(-c3ccc(N=C(N)N)cc3Cl)o2)c(Cl)c1	inhibition					12.5 µg/mL	0%
O=C(N/N=C(\c1ccccc1)C(F)(F)F)c1ccncc1	inhibition				BACTEC	0.5 µM	0%
O=C1C[C@@H](c2ccc(O)cc2)Oc2c1c(O)cc(O[C@@H]1O[C@H](CO)[C@@H](O)[C@H](O)[C@H]1O)c2[C@H]1C(=O)c2c(O)cc(O)cc2O[C@@H]1c1ccc(O)cc1	inhibition					12.5 µg/mL	0%
CO[C@@H]1[C@@H](OC(=O)c2ccc(C)[nH]2)[C@@H](O)C(Oc2ccc3c(O)c(NC(=O)c4c[nH]c(C(=O)Nc5c(O)c6ccc(OC7OC(C)(C)[C@H](OC)[C@@H](OC(=O)c8ccc(C)[nH]8)[C@H]7O)c(C)c6oc5=O)c4C)c(=O)oc3c2C)OC1(C)C	MIC	INH-r					12.8 µg/mL
CCN1CC(c2ccsc2)=NC(C#N)=C1C#N	MIC	H37Rv			broth dilution / visual reading		6.2 µg/mL
CC(=O)c1c(OCC(N)=O)cc2oc3cc(O)c(CCC(C)C)c(O)c3c(=O)c2c1CCC(C)C	MIC	H37Ra			resazurin		1.56 µg/mL
COc1ccccc1NNC(=O)N1CCN(c2nc(N3CCN(c4ccccc4)CC3)c3ccccc3n2)CC1	inhibition	H37Rv			agar / visual reading	25 µg/mL	95%
Oc1cc2oc3cc(O)c(O)cc3c2cc1O	MIC bound	H37Rv			BACTEC		>12.5 µg/mL
Cc1cc(N=C(N)N)ccc1-c1ccc(-c2ccc(N=C(N)N)cc2C)o1	EC50						>12.5 µg/mL
CCOC(=O)c1cc(CNc2cccc(OC(F)(F)F)c2)on1	MIC	H37Rv			low oxygen		33.3 µM
O=c1cc(-c2ccccc2)oc2ccc(-c3ccccc3-c3cc(=O)c4ccccc4o3)cc12	MIC						>12.5 µg/mL
CC(C)c1cc(O)c2c(c1O)[C@H]1C[C@H]3C(C)(C)CCC[C@]23C(=O)O1	MIC	H37Rv			BACTEC		≥12.5 µg/mL
C=CCOc1cc2oc3cc(OCC=C)c(OC)c(CCC(C)C)c3c(=O)c2c(O)c1CCC(C)C	MIC	H37Ra			resazurin		>200 µg/mL
O=C(CCc1ccccc1)On1nnc2ccccc2c1=O	MIC bound	H37Rv			BACTEC		>12.5 µg/mL
COc1cc2oc3cc(O)c(CCC(C)C)c(O)c3c(=O)c2c(CCC(C)C)c1OC	MIC	M11			resazurin		3.12 µg/mL
O=c1cc(-c2cccc(-c3ccc4c(=O)cc(-c5ccccc5)oc4c3)c2)oc2ccccc12	MIC						>12.5 µg/mL
O=C(NC(Cc1ccc(O)cc1)C(=O)N=Nc1c(O)[nH]c2ccccc12)c1ccccc1	inhibition	H37Rv			BACTEC	12.5 µg/mL	13%
C[C@@H]([C@H](NC(=O)[C@H](CC1CCCCC1)NC(=O)N[C@@H](Cc1c[nH]c2ccccc12)C(=O)O)C(=O)NC[C@H]1C[C@@H](O)[C@H](n2ccc(=O)[nH]c2=O)O1)N(C)C(=O)CN	MIC50	H37Rv			resazurin / fluorescence		0.09 µM
CCN1C(C#N)=C(C#N)N=C(c2ccsc2)[C@@H]1/C=C/c1ccccc1	MIC	H37Rv			broth dilution / visual reading		12.5 µg/mL
C=C1C(=O)O[C@H]2[C@H]1[C@H](OC(=O)/C(C)=C/COC(C)=O)C[C@]1(CO1)[C@@H]1C(O)[C@H]3O[C@@]3(C)[C@H]21	MIC	H37Rv			BACTEC		≥12.5 µg/mL
CC(=O)c1c(C)n([O-])c2ccc(Cl)cc2[n+]1=O	EC50	H37Rv	VERO		BACTEC		<6.25 µg/mL
CCOC(=O)c1cc(CNc2cc(F)cc(F)c2F)on1	MIC	H37Rv			low oxygen		108.9 µM
CCOc1cc2oc3cc(O)c(CCC(C)C)c(O)c3c(=O)c2c(CCC(C)C)c1OC	MIC	M16			resazurin		3.12 µg/mL
S=c1nc[nH][nH]1	MIC	My 331/88					1000 µM
Cc1cc(S(=O)(=O)Nc2nc(N)nc(N3CCOCC3)n2)c(S)cc1Cl	MIC bound	H37Rv			BACTEC		>12.5 µg/mL
CCOC(=O)c1cc(-c2cccc(C)c2)on1	MIC	H37Rv			low oxygen		25.1 µM
c1ccc(-c2cc3c(cc4c5nncn5ncn34)o2)cc1	inhibition	H37Rv			BACTEC	12.5 µg/mL	46%
Clc1ccc(CSc2ncn[nH]2)cc1Cl	MIC	My 331/88					1000 µM
COc1ccc(/C=c2/sc3n(c2=O)NC(c2ccc(Cl)cc2)NN=3)cc1	inhibition	H37Rv			BACTEC	12.5 µg/mL	33%
CCCCCCCCCCCCOC(=O)[C@H](Cc1c[nH]c2ccccc12)NC(=O)N[C@@H](Cc1ccc2ccccc2c1)C(=O)N[C@H](C(=O)NC[C@H]1C[C@@H](O)[C@H](n2ccc(=O)[nH]c2=O)O1)[C@H](C)N(C)C(=O)CN	MIC99	H37Rv			resazurin / fluorescence		0.3 µM
CC1CCN(C(=S)S)CC1.CC1CCNCC1	MIC	KM-R					0.8 µg/mL
CCOC(=O)c1cc(CNc2cc(C(F)(F)F)nc3c(C(F)(F)F)cccc23)on1	MIC	H37Rv			low oxygen		>128 µM

Repeating the final 8 entries:

compound,measure,strain or isolate,cell line,mutations,method,dose,result
Cc1cc(S(=O)(=O)Nc2nc(N)nc(N3CCOCC3)n2)c(S)cc1Cl,MIC bound,H37Rv,,,BACTEC,,>12.5 µg/mL
CCOC(=O)c1cc(-c2cccc(C)c2)on1,MIC,H37Rv,,,low oxygen,,25.1 µM
c1ccc(-c2cc3c(cc4c5nncn5ncn34)o2)cc1,inhibition,H37Rv,,,BACTEC,12.5 µg/mL,46%
Clc1ccc(CSc2ncn[nH]2)cc1Cl,MIC,My 331/88,,,,,1000 µM
COc1ccc(/C=c2/sc3n(c2=O)NC(c2ccc(Cl)cc2)NN=3)cc1,inhibition,H37Rv,,,BACTEC,12.5 µg/mL,33%
CCCCCCCCCCCCOC(=O)[C@H](Cc1c[nH]c2ccccc12)NC(=O)N[C@@H](Cc1ccc2ccccc2c1)C(=O)N[C@H](C(=O)NC[C@H]1C[C@@H](O)[C@H](n2ccc(=O)[nH]c2=O)O1)[C@H](C)N(C)C(=O)CN,MIC99,H37Rv,,,resazurin / fluorescence,,0.3 µM
CC1CCN(C(=S)S)CC1.CC1CCNCC1,MIC,KM-R,,,,,0.8 µg/mL
CCOC(=O)c1cc(CNc2cc(C(F)(F)F)nc3c(C(F)(F)F)cccc23)on1,MIC,H37Rv,,,low oxygen,,>128 µM